Test results reported in ChEMBL document CHEMBL3596151, “Elucidation of the in vitro and in vivo activities of bridged 1,2,4-trioxolanes, bridged 1,2,4,5-tetraoxanes, tricyclic monoperoxides, silyl peroxides, and hydroxylamine derivatives against Schistosoma mansoni” (Bioorg Med Chem, 2015).

System: Schistosoma mansoni
Test: Antischistosomal activity against newly transformed Schistosoma mansoni cercariae assessed as decrease in viability at 12.5 ug/ml after 72 hrs by microscopic analysis
Format: functional, organism-based

Structure (SMILES) | inhibition
CC(C)C[C@]12OO[C@](C)(OO1)C2C (stereo partly drawn) | inactive
CC(=O)CCC1(Cc2ccc([N+](=O)[O-])cc2)[C@]2(C)OO[C@@]1(C)OO2 (stereo partly drawn) | inactive
CC(C)(C)[C@]12C[C@](C(C)(C)C)(OO1)OO2 | inactive

The source made the active and inactive calls. The calls are words filed in the database; no cut-off is given here.
